Reference: patent US20260234738A1

B1: mAb10986 (antibody)
heavy: EVQLVESGGGLVQPGGSLRLSCAASEFTVSSNYMSWVRQAPGKGLEWVSVIYSGGSTFYADSVKGRFTISRDNSKNTLYLQMNSLRAEDTAVYYCARALPYGDLHFDYWGQGTLVTVSSASTKGPSVFPLAPSSKSTSGGTAALGCLVKDYFPEPVTVSWNSGALTSGVHTFPAVLQSSGLYSLSSVVTVPSSSLGTQTYICNVNHKPSNTKVDKKV[human IgG1 Fc left out]
light: QSVLTQPPSVSGAPGQRVTISCTGSSSNIGTGYDVHWYQQLPGTAPKLLIYGNTNRPSGVPDRFSGSKSGTSASLAITGLQAEDEADYYCQSYDSSLSDSYVFGTGTKVTVLGQPKAAPSVTLFPPSSEELQANKATLVCLISDFYPGAVTVAWKADSSPVKAGVETTTPSKQSNNKYAASSYLSLTPEQWKSHRSYSCQVTHEGSTVEKTVAPTECS
B2: mAb10937 (antibody)
heavy: QITLKESGPTLVKPTQTLTLTCTFSGFSLSTNVVGVGWIRQPPGKALEWLALIYWNDDKRYSPSLKSRLTITKDTSKNQVVLTMTNMDPVDTATYYCAHGPTGDYFDYWGQGTLVTVSSASTKGPSVFPLAPSSKSTSGGTAALGCLVKDYFPEPVTVSWNSGALTSGVHTFPAVLQSSGLYSLSSVVTVPSSSLGTQTYICNVNHKPSNTKVDKKV[human IgG1 Fc left out]
light: [about 100 residues left out][about 120 residues left out]
B3: mAb11002 (antibody)
heavy: EVQLVESGGGLVQPGGSLRLSCAASGFTVSSNYMSWVRQAPGKGLEWVSVIYSGGSTFYADSVKGRFTISRHNSKNTLYLQMNSLRAEDTAVYYCAREGYGMDVWGQGTTVTVSSASTKGPSVFPLAPSSKSTSGGTAALGCLVKDYFPEPVTVSWNSGALTSGVHTFPAVLQSSGLYSLSSVVTVPSSSLGTQTYICNVNHKPSNTKVDKKV[human IgG1 Fc left out]
light: [about 100 residues left out][about 120 residues left out]
B4: mAb10957 (antibody)
heavy: EVQLVESGGGLVQPGGSLRLSCAASGVTVSSNYMSWVRQAPGKGLEWVSVIYSGGSTFYADSVKGRFTISRDNSKNTLFLQMNSLRIEDTAVYYCARDLGPYGMDVWGQGTTVTVSSASTKGPSVFPLAPSSKSTSGGTAALGCLVKDYFPEPVTVSWNSGALTSGVHTFPAVLQSSGLYSLSSVVTVPSSSLGTQTYICNVNHKPSNTKVDKKV[human IgG1 Fc left out]
light: DIQLTQSPSFLSASVGDRVTITCRASQGISSYLAWYQQKPGKAPKLLIYAASTLQSGVPSRFSGSGSGTQFILTISSLQPEDFATYYCQQLNSYPGFTFGPGTKVDIKRTVAAPSVFIFPPSDEQLKSGTASVVCLLNNFYPREAKVQWKVDNALQSGNSQESVTEQDSKDSTYSLSSTLTLSKADYEKHKVYACEVTHQGLSSPVTKSFNRGEC
B5: mAb10956 (antibody)
heavy: B4 heavy with V27L, F79Y, I87A, G100I, P101K
light: DIQMTQSPSSLSASVGDRVTITCQASQDISNYLNWYQQKPGKAPKLLIYDASNLETGVPSRFSGSGSGTDFTFTISSLQPEDIATYYCQQYDNLPPHFGPGTKVDIKRTVAAPSVFIFPPSDEQLKSGTASVVCLLNNFYPREAKVQWKVDNALQSGNSQESVTEQDSKDSTYSLSSTLTLSKADYEKHKVYACEVTHQGLSSPVTKSFNRGEC
B6: mAb10914 (antibody)
heavy: B4 heavy with V27L, T28I, S31R, S35I, D72H, F79Y, I87A, P101T, Y102G
light: DIQLTQSPSFLSASVGDRVTITCWASQGISSYLAWYQQKPGKAPKLLIYAASTLQSGVPSRFSGSGSGTEFTLTISSLQPEDFATYYCQQLNSYPLTFGGGTKVEIKRTVAAPSVFIFPPSDEQLKSGTASVVCLLNNFYPREAKVQWKVDNALQSGNSQESVTEQDSKDSTYSLSSTLTLSKADYEKHKVYACEVTHQGLSSPVTKSFNRGEC
B7: mAb10913 (antibody)
heavy: EVQLVESGGGLVQPGGSLRLSCAASGFTFRNYEMNWVRQAPGKGLEWVSYITSSGSTMYYADSVKGRFTISRDNAKNSLYLQMNSLRAEDTAVYYCARDGFYYYYAMDVWGQGTTVTVSSASTKGPSVFPLAPSSKSTSGGTAALGCLVKDYFPEPVTVSWNSGALTSGVHTFPAVLQSSGLYSLSSVVTVPSSSLGTQTYICNVNHKPSNTKVDKKV[human IgG1 Fc left out]
light: QSVLTQPPSVSAAPGQKVTISCSGSSSNIGNNYVSWYQQLPGTAPKLLIYDNNKRPSGIPDRFSGSKSGTSATLGITGLQTGDEADYYCGTWDSSLSVGRVFGTGTKVTVLGQPKAAPSVTLFPPSSEELQANKATLVCLISDFYPGAVTVAWKADSSPVKAGVETTTPSKQSNNKYAASSYLSLTPEQWKSHRSYSCQVTHEGSTVEKTVAPTECS
B8: mAb10932 (antibody)
heavy: EVQLVESGGGLVQSGGSLRLSCAASGLTVSSNYMSWVRQAPGKGLEWVSVIYSGGSTFYSDSVKGRFTISRHNSKNTLYLQMNSLRAEDTAVYYCARARGDAFDIWGQGTMVTVSSASTKGPSVFPLAPSSKSTSGGTAALGCLVKDYFPEPVTVSWNSGALTSGVHTFPAVLQSSGLYSLSSVVTVPSSSLGTQTYICNVNHKPSNTKVDKKV[human IgG1 Fc left out]
light: DIQMTQSPSSLSASVGDRVTITCQASQGISNYLNWYQQKPGKAPKLLISDASNLETGVPSRFSGSGSGTDFTFTISSLQPEDIATYYCQQYDNLRFFTFGPGTKVDIKRTVAAPSVFIFPPSDEQLKSGTASVVCLLNNFYPREAKVQWKVDNALQSGNSQESVTEQDSKDSTYSLSSTLTLSKADYEKHKVYACEVTHQGLSSPVTKSFNRGEC
B9: mAb10967 (antibody)
heavy: EVQLVESGGGLVQPGGSLRLSCAASGFTVSSNYMSWVRQAPGKGLEWVSVIYPGGSTFYADSVKGRFTISRDNSKNTLYLQMNSLRAEDTAVYYCARDQRDFAWGQGTLVTVSSASTKGPSVFPLAPSSKSTSGGTAALGCLVKDYFPEPVTVSWNSGALTSGVHTFPAVLQSSGLYSLSSVVTVPSSSLGTQTYICNVNHKPSNTKVDKKV[human IgG1 Fc left out]
light: B5 light with S77G, H97T, P100Q, K103R, V104L, D105E

The binders below were run against UNMODIFIED-SARS-CoV-2 Spike Protein (RBD)([…]).mmH (SARS-CoV-2) (assay: Luminex bead binding, antibody supernatant). Details: remark: other sources report otherwise.

Row | Binder | binding signal (MFI)
1 | B1 | 25400 MFI
2 | B2 | 33600 MFI
3 | B3 | 9880 MFI
4 | B4 | 20900 MFI
5 | B5 | 24600 MFI
6 | B6 | 36000 MFI
7 | B7 | 31700 MFI
8 | B8 | 34000 MFI
9 | B9 | 26800 MFI

Each binder was assayed against SARS-COV-2 RBD-MMH (SARS-CoV-2) (assay: SPR). Details: remark: other sources report otherwise.

Row | Binder | Kd | t½ | koff | kon
10 | B1 | 0.797 nM | 45.2 min | – | –
11 | B2 | 15 nM | 2 min | – | –
12 | B3 | 79.3 nM | 0.5 min | 0.0254 s⁻¹ | 321000 M⁻¹ s⁻¹
13 | B4 | 2.35 nM | 36.7 min | – | –
14 | B5 | 26.2 nM | 2.2 min | – | –
15 | B6 | 38.9 nM | 0.8 min | – | –
16 | B7 | 46.4 nM | 0.5 min | – | –
17 | B8 | 1.48 nM | 92 min | – | –
18 | B9 | 0.966 nM | 107 min | – | –

Residue numbers refer to the chain shown, from its start.
